Anti-infective test results gathered from many reports (values: NIAID ChemDB through PubChem).

Shared fields: whole-cell or culture tests; organism: Herpes simplex virus 1; cell line: E6SM; read-out: EC50

ECn: concentration that inhibits the pathogen or its effect by n%.

SMILES	strain	method	value
Cc1ccn2c(C3OCCS3)cnc2c1	KOS		>1000 µM
COc1ncnc2c1cnn2Cc1cn(CCCCO)nn1	B2006 (TK-)		>400 µg/mL
Nc1ncnc2c1ncn2[C@@H]1O[C@H](COP(=O)(O)O[C@@H]2[C@H](O)[C@@H](COP(=O)(O)OP(=O)(O)OC[C@@H]3OC(O)[C@H](O)[C@H](O)[C@H]3O)O[C@H]2n2cnc3c(N)ncnc32)[C@@H](O)[C@H]1O		cytopathic effect	>200 µg/mL
Cc1cccn2c(C3SCCS3)cnc12	B2006 (TK-)		>1000 µM
Nc1nc(N)c2ncn(C[C@H](CF)OCP(=O)(O)O)c2n1	KOS F McIntyre	cytopathic effect	>600 µM
CSc1ncnc2c1cnn2Cc1cn(CCCCO)nn1	KOS		>400 µg/mL
COC(=O)[C@]1(C)CCC[C@]2(C)c3cc(Br)c4[nH]ccc4c3CCC12		plaque count	>4 µg/mL
Cc1cc([C@@H]2C[C@H](O)[C@@H](CO)O2)c(F)cc1Cl	VMW 1837	cytopathic effect	>400 µg/mL
Nc1ncnc2c1ncn2C[C@H](CO)OCP(=O)(O)O	KOS F McIntyre	cytopathic effect	29 µM
OC[C@H]1O[C@H](c2cc(Br)c(F)cc2F)C[C@@H]1O	VMW 1837	cytopathic effect	>400 µg/mL
Nc1nc(N)c2ncn(C[C@H](CO)OCP(=O)(O)O)c2n1	KOS F McIntyre	cytopathic effect	14 µM
NC1=CC(N)=NS(=O)(=O)N1COCCO	B206 (TK-)		>400 µg/mL
C[C@H](Cn1cnc2c(=O)[nH]c(N)nc21)OCP(=O)(O)O	KOS F McIntyre	cytopathic effect	132 µM
Nc1nc2nn(CCOCP(=O)(O)O)nc2c(=O)[nH]1	KOS	cytopathic effect	>400 µg/mL
CCOC(=O)C1=CN(COCCO)S(=O)(=O)NC1=O	B206 (TK-)		>400 µg/mL
Cc1cc([C@@H]2C[C@H](O)[C@@H](CO)O2)c(Cl)cc1F	F	cytopathic effect	>400 µg/mL
O=c1[nH]c(=O)n(C2CC(O[N+](=O)[O-])C(CO)O2)cc1F	KOS	cytopathic effect	>400 µg/mL
Nc1ncnc2c1cnn2Cc1cn(CCCCO)nn1	KOS		>400 µg/mL
OC[C@H]1O[C@@H](c2cc(C(F)(F)F)c(F)cc2F)C[C@@H]1O	VMW 1837	cytopathic effect	>400 µg/mL
CCC(Sc1ncnc2c1cnn2COCCO)C(N)=O	KOS	cytopathic effect	>400 µg/mL
Nc1ncnc2c1ncn2[C@@H]1O[C@H](COP(=O)(O)O[C@@H]2[C@H](O)[C@@H](COP(=O)(O)O[C@@H]3[C@H](O)[C@@H](COP(=O)(O)OP(=O)(O)OC[C@@H]4OC(O)[C@H](O)[C@H](O)[C@H]4O)O[C@H]3n3cnc4c(N)ncnc43)O[C@H]2n2cnc3c(N)ncnc32)[C@@H](O)[C@H]1O		cytopathic effect	70 µg/mL
CC(=O)OCCOCN1C=CC(=O)N(COCCO)S1(=O)=O	F		>400 µg/mL
CC(Sc1ncnc2c1cnn2COCCO)C(N)=O	B2006 (TK-)	cytopathic effect	>400 µg/mL
N#Cc1cc([C@H]2C[C@H](O)[C@@H](CO)O2)c(F)cc1F	KOS/ACV-R	cytopathic effect	>400 µg/mL
COC(=O)[C@]1(C)CCC[C@]2(C)c3ccc4nc(-c5ccccc5)c(-c5ccccc5)nc4c3CCC12		plaque count	>4 µg/mL
Nc1ncnc2c1ncn2[C@@H]1O[C@H](COP(=O)(O)O[C@@H]2[C@H](O)[C@@H](COP(=O)(O)O[C@@H]3[C@H](O)[C@@H](COP(=O)(O)OP(=O)(O)OP(=O)(O)O)O[C@H]3n3cnc4c(N)ncnc43)O[C@H]2n2cnc3c(N)ncnc32)[C@@H](O)[C@H]1O		cytopathic effect	>200 µg/mL
COC(=O)[C@]1(C)CCC[C@]2(C)c3ccc4nc5c(nc4c3CCC12)CCCC5		plaque count	>4 µg/mL
Cc1ccn2c(C3OCCO3)cnc2c1	VMW 1837 (TK+/TK-)		>1000 µM
COc1cc(F)c([C@H]2C[C@H](O)[C@@H](CO)O2)cc1[N+](=O)[O-]	VMW 1837	cytopathic effect	>400 µg/mL
Nc1ncnc2c1ncn2[C@H]1CO[C@H](CO)[C@@H](O)C1	TK-/B2006	cytopathic effect	>20 µg/mL
NC(=O)CSc1ncnc2c1cnn2COCC(O)CO	KOS	cytopathic effect	>400 µg/mL
COC(CI)c1cc([C@H]2C[C@H](O)[C@@H](CO)O2)c(F)cc1F	VMW 1837	cytopathic effect	>80 µg/mL
CC(=O)OCCOCN1C(=N)/C(=C(\C)O)C(N)=NS1(=O)=O	F		>400 µg/mL
Nc1nc2c(ncn2C[C@@H](CO)OCP(=O)(O)O)c(=O)[nH]1	KOS F McIntyre	cytopathic effect	0.66 µM
Nc1nc2c(ncn2[C@@H]2C=C[C@H](CO)[C@@H](O)C2)c(=O)[nH]1	McIntyre	cytopathic effect	0.004 µg/mL
CCOC(=O)C1=CN(COCCOC(C)=O)S(=O)(=O)N=C1N	F		>400 µg/mL
OC[C@H]1O[C@@H](c2cc(Br)c(F)cc2F)C[C@@H]1O	McIntyre	cytopathic effect	>400 µg/mL
OC[C@H]1O[C@@H](c2cc(C(O)C(I)I)c(F)cc2F)C[C@@H]1O	KOS (TK-)	cytopathic effect	>80 µg/mL
CC(=O)OCCOCN1C=CC(=O)N(COCCOC(C)=O)S1(=O)=O	F		>400 µg/mL
COC(=O)Nc1nc2c3c(ccc2[nH]1)[C@@]1(C)CCC[C@@](C)(C(=O)OC)C1CC3		plaque count	>4 µg/mL
CCC(Sc1ncnc2c1cnn2COCC(O)CO)C(N)=O	VWM1837 (TK-)	cytopathic effect	>400 µg/mL
CC(=O)OCCOCN1C(=O)C=CN(COCCO)S1(=O)=O	KOS		>400 µg/mL
Cc1ccn2c(C(SCCc3ccccc3)SCCc3ccccc3)cnc2c1	KOS		>1000 µM
Nc1ncc2ncn(C[C@@H](CO)OCP(=O)(O)O)c2n1	KOS F McIntyre	cytopathic effect	13 µM
O=c1[nH]c(=O)n(C2CC(O[N+](=O)[O-])C(CO)O2)cc1I	KOS ACV-R (TK-)	cytopathic effect	>400 µg/mL
OCCCCn1cc(Cn2ncc3c(SCc4ccccc4)ncnc32)nn1	VWM1837		>400 µg/mL

Repeating the first 4 entries:

SMILES | strain | method | value
Cc1ccn2c(C3OCCS3)cnc2c1 | KOS |  | >1000 µM
COc1ncnc2c1cnn2Cc1cn(CCCCO)nn1 | B2006 (TK-) |  | >400 µg/mL
Nc1ncnc2c1ncn2[C@@H]1O[C@H](COP(=O)(O)O[C@@H]2[C@H](O)[C@@H](COP(=O)(O)OP(=O)(O)OC[C@@H]3OC(O)[C@H](O)[C@H](O)[C@H]3O)O[C@H]2n2cnc3c(N)ncnc32)[C@@H](O)[C@H]1O |  | cytopathic effect | >200 µg/mL
Cc1cccn2c(C3SCCS3)cnc12 | B2006 (TK-) |  | >1000 µM

Conditions beyond the fields shown may differ between rows. An empty or dashed field is not shown.